Experimental data published in US20250313611A1.

Target: recombinant human FcRn/FCGRT-B2M heterodimer protein (human) (UniProt P55899)
Experiment: SPR, pH 7.4

Bebtelovimab Biosimilar (PX-TA1750) (antibody)
RUmax at 1500 nM (pH 7.4): 8.2 RU

human IgG1 isotype control antibody
RUmax at 1500 nM (pH 7.4): 16.2 RU
